{"source": "PubChem BioAssay AID1259414 (Drosophila RNAi Screening Center, 2018)", "test": "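Genome-wide screen for host control of endosymbiont load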 (primary screen)", "cell system": "Drosophila JW18 cells infected with Wolbachia", "knock-down reagent": "long dsRNA against Drosophila genes, 0.25 µg dsRNA per well of a 384-well plate", "timing": "5 days", "conditions": "cells persistently infected with Wolbachia before knock-down; no added drug", "detection": "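Automated imaging of bacterial rRNA staining divided by host cell count, reported as plate-normalised robust z-score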", "reading the numbers": "Wolbachia per cell robust z: higher = more Wolbachia per host cell than the plate typical", "hit rule": "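Hit when robust z is 1.5 or more, or -1.5 or less, in at least two of three replicates; excludes dsRNAs with several or no targets, genes not expressed in JW18 and well A1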", "note": "The deposit covers about 24,000 reagents; this is an unselected part of those that have a named target and a result. In the full data, about 1,210 (5%) were called active. 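Inactive calls also include excluded dsRNAs with several or no targets, genes unexpressed in JW18, and well A1, regardless of score.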 The numbers tell different reagents against one gene apart. A plus sign joins genes that one reagent is predicted to hit."}
{"target": "CG6179", "reagent no.": 1, "Wolbachia per cell robust z, rep 1": 0.351, "Wolbachia per cell robust z, rep 2": 0.251, "Wolbachia per cell robust z, rep 3": -4.09, "call": "inactive"}
{"target": "CG42807", "reagent no.": 1, "Wolbachia per cell robust z, rep 1": -0.0927, "Wolbachia per cell robust z, rep 2": 0.00796, "Wolbachia per cell robust z, rep 3": 0.793, "call": "inactive"}
{"target": "LysS", "reagent no.": 1, "Wolbachia per cell robust z, rep 1": 1.1, "Wolbachia per cell robust z, rep 2": -2.43, "Wolbachia per cell robust z, rep 3": 1.1, "call": "inactive"}
{"target": "LysS", "reagent no.": 2, "Wolbachia per cell robust z, rep 1": -0.63, "Wolbachia per cell robust z, rep 2": 0.744, "Wolbachia per cell robust z, rep 3": 0.56, "call": "inactive"}
{"target": "PolE2", "reagent no.": 1, "Wolbachia per cell robust z, rep 1": 0.185, "Wolbachia per cell robust z, rep 2": -0.873, "Wolbachia per cell robust z, rep 3": -0.835, "call": "inactive"}
{"target": "E(spl)malpha-BFM", "reagent no.": 1, "Wolbachia per cell robust z, rep 1": 1.55, "Wolbachia per cell robust z, rep 2": 0.853, "Wolbachia per cell robust z, rep 3": 0.929, "call": "inactive"}
{"target": "E(spl)malpha-BFM", "reagent no.": 2, "Wolbachia per cell robust z, rep 1": 0.706, "Wolbachia per cell robust z, rep 2": 0.667, "Wolbachia per cell robust z, rep 3": 0.642, "call": "inactive"}
{"target": "Sos", "reagent no.": 1, "Wolbachia per cell robust z, rep 1": -2.94, "Wolbachia per cell robust z, rep 2": 1.28, "Wolbachia per cell robust z, rep 3": 1.38, "call": "inactive"}
{"target": "Sos", "reagent no.": 2, "Wolbachia per cell robust z, rep 1": 1.58, "Wolbachia per cell robust z, rep 2": 1.47, "Wolbachia per cell robust z, rep 3": 3.86, "call": "active"}
{"target": "Sos", "reagent no.": 3, "Wolbachia per cell robust z, rep 1": -2.18, "Wolbachia per cell robust z, rep 2": -0.524, "Wolbachia per cell robust z, rep 3": -6.51, "call": "inactive"}
{"target": "IFT46", "reagent no.": 1, "Wolbachia per cell robust z, rep 1": -1.33, "Wolbachia per cell robust z, rep 2": -0.196, "Wolbachia per cell robust z, rep 3": -0.445, "call": "inactive"}
{"target": "Pde8", "reagent no.": 1, "Wolbachia per cell robust z, rep 1": -0.409, "Wolbachia per cell robust z, rep 2": -2.29, "Wolbachia per cell robust z, rep 3": -5.07, "call": "active"}
{"target": "Pde8", "reagent no.": 2, "Wolbachia per cell robust z, rep 1": -1.13, "Wolbachia per cell robust z, rep 2": -0.622, "Wolbachia per cell robust z, rep 3": -7.25, "call": "inactive"}
{"target": "Pde8", "reagent no.": 3, "Wolbachia per cell robust z, rep 1": 0.974, "Wolbachia per cell robust z, rep 2": 1.07, "Wolbachia per cell robust z, rep 3": 0.745, "call": "inactive"}
{"target": "CG9399", "reagent no.": 1, "Wolbachia per cell robust z, rep 1": 0.205, "Wolbachia per cell robust z, rep 2": -0.16, "Wolbachia per cell robust z, rep 3": 0.128, "call": "inactive"}
{"target": "CG31230", "reagent no.": 1, "Wolbachia per cell robust z, rep 1": 0.545, "Wolbachia per cell robust z, rep 2": -0.715, "Wolbachia per cell robust z, rep 3": 0.681, "call": "inactive"}
{"target": "CG31230", "reagent no.": 2, "Wolbachia per cell robust z, rep 1": -0.154, "Wolbachia per cell robust z, rep 2": -1.41, "Wolbachia per cell robust z, rep 3": -1.42, "call": "inactive"}
{"target": "Gas41", "reagent no.": 1, "Wolbachia per cell robust z, rep 1": -1.07, "Wolbachia per cell robust z, rep 2": 0.563, "Wolbachia per cell robust z, rep 3": -0.661, "call": "inactive"}
{"target": "CG7352", "reagent no.": 1, "Wolbachia per cell robust z, rep 1": 1.81, "Wolbachia per cell robust z, rep 2": -1.21, "Wolbachia per cell robust z, rep 3": -0.0488, "call": "inactive"}
{"target": "CG42359", "reagent no.": 1, "Wolbachia per cell robust z, rep 1": -0.0378, "Wolbachia per cell robust z, rep 2": 1.54, "Wolbachia per cell robust z, rep 3": 1.1, "call": "inactive"}
{"target": "CAH13", "reagent no.": 1, "Wolbachia per cell robust z, rep 1": -0.222, "Wolbachia per cell robust z, rep 2": -0.712, "Wolbachia per cell robust z, rep 3": -0.0844, "call": "inactive"}
{"target": "CAH13", "reagent no.": 2, "Wolbachia per cell robust z, rep 1": -4.17, "Wolbachia per cell robust z, rep 2": -2.87, "Wolbachia per cell robust z, rep 3": -0.504, "call": "inactive"}
{"target": "SteXh:CG42398 + Ste:CG33244 + Ste:CG33246 + 11 more", "reagent no.": 1, "Wolbachia per cell robust z, rep 1": -7.59, "Wolbachia per cell robust z, rep 2": 0.49, "Wolbachia per cell robust z, rep 3": -2.23, "call": "inactive"}
{"target": "CG42446", "reagent no.": 1, "Wolbachia per cell robust z, rep 1": 0.462, "Wolbachia per cell robust z, rep 2": 0.448, "Wolbachia per cell robust z, rep 3": -1.2, "call": "inactive"}
